Measured values taken from publication PMC8765293, “Inhibitor-Resistant Mutants Give Important Insights into Candida albicans ABC Transporter Cdr1 Substrate Specificity and Help Elucidate Efflux Pump Inhibition” (Antimicrobial Agents and Chemotherapy, 2022).

Sequences of proteins named here, by UniProt entry; tags and fusion partners are left off. A change or cut given only in a name is not applied to a line headed by its entry.
UniProt Q5ANA3: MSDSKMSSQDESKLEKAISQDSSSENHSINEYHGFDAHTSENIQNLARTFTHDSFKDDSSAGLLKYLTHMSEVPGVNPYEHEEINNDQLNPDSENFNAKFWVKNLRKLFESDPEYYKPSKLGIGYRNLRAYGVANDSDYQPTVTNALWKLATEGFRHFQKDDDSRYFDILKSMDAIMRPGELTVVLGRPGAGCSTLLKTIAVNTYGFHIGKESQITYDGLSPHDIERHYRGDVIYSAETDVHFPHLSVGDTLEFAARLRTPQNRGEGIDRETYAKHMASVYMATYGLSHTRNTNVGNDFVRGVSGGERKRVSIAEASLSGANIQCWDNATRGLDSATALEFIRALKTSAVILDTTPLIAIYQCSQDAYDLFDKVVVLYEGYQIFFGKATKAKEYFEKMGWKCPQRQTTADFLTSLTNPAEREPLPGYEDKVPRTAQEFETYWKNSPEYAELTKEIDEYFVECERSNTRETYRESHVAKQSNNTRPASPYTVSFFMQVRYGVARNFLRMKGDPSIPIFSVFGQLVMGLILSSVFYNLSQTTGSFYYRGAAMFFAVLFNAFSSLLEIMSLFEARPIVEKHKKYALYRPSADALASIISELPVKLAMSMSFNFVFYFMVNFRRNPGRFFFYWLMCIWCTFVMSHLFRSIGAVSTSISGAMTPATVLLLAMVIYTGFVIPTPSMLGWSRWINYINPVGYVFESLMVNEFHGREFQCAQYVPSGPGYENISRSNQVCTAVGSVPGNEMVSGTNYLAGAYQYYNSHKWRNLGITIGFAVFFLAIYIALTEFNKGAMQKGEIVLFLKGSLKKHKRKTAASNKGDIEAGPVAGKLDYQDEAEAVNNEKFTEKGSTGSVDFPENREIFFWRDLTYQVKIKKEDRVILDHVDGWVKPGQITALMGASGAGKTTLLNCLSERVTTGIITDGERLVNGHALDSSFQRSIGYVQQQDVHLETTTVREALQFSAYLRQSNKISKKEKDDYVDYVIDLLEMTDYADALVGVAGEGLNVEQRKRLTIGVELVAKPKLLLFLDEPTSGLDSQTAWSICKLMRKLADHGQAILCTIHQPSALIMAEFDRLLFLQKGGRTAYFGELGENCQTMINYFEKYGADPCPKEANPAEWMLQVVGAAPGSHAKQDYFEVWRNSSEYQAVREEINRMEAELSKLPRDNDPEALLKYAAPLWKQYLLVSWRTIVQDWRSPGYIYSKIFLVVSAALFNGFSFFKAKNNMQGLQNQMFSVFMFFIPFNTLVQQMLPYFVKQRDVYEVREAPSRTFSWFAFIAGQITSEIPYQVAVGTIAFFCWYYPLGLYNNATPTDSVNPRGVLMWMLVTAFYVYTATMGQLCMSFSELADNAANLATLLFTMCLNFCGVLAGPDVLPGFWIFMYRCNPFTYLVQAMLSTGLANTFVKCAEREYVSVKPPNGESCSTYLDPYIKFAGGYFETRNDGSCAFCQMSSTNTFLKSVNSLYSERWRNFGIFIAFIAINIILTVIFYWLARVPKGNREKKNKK

Biological target: wt Cdr1 (FLC efflux of AD/CDR1 cells) (Candida albicans, UniProt Q5ANA3)
Details: read-out: IC50 for inhibition of FLC efflux (MICFLC), live whole cells, from Fig. 3B

Q: With beauvericin as the substance, how does the IC50 read?
A: 310 nM
